IC50 (thallium flux, FLIPR), Potency IC50 (patch clamp) and IC50 (IL-17A release, thapsigargin-stimulated rat whole blood) data for 35 molecules are collected here from patent US20220251151A1, “Kv1.3 blockers” (published 2022).

What all share (experiment): cell-based or functional assay
Test [1] addresses human Kv1.3 voltage-gated K+ channel (human), P22001.
Test [2] deals with human Kv1.3 potassium channel (potassium voltage-gated channel subfamily A member 3, α-subunit) (human), P22001.
In test [3] the target is T1, Kv1.3 ion channel (rat, endogenous on T cells in rat whole blood) (rat), P15384.
T1 chain: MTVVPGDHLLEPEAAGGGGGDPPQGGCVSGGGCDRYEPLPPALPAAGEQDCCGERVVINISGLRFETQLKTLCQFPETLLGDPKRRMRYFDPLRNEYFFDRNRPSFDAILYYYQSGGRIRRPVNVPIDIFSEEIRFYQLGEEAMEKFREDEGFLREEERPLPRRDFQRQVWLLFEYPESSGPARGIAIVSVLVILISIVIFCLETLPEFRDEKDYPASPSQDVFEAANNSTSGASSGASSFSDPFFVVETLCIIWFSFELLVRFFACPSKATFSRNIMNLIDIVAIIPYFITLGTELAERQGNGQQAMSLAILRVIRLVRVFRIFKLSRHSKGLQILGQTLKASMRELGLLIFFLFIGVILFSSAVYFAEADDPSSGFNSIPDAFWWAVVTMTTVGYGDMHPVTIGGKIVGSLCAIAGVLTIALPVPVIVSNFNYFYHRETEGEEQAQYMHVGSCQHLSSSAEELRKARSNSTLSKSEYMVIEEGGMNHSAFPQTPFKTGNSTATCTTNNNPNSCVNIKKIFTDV

B1: Compound 6 (peptide)
peptide: DMRCSASVECKQKCLKAIGSIFGKCMNKKCKCYPR
modifications: not checked
The molecule B1 came in with an IC50 (thallium flux, FLIPR) in test [1] of 0.34 nM.

B2: Compound 5 (peptide)
peptide: MDMRCSASVECKQKCLKAIGSIFGKCMNKKCKCYPR
modifications: not checked
For B2, the Potency IC50 (patch clamp) in test [2] was determined as 0.38 nM. This molecule also had an IC50 (thallium flux, FLIPR) in test [1] of 0.25 nM.

B3: Compound 116 (peptide)
peptide: LRCSASVECKQKCLAAIGSIFGKCMNKKCKCYPR
modifications: not checked
As for B3, the IC50 (IL-17A release, thapsigargin-stimulated rat whole blood) in test [3] is 0.36 nM. In test [1], this molecule displayed an IC50 (thallium flux, FLIPR) of 0.18 nM.

B4: Compound 117 (peptide)
peptide: CSASVECKQKCLKAIGSIFGKCMNKKCKCYPR
modifications: not checked
B4 had an IC50 (IL-17A release, thapsigargin-stimulated rat whole blood) in test [3] of 1.9 nM. The Potency IC50 (patch clamp) in test [2] was determined as 2.09 nM. Also, the IC50 (thallium flux, FLIPR) in test [1] is 1.5 nM.

B5: Compound 1 (PaT1) (peptide)
peptide: QMDMRCSASVECKQKCLKAIGSIFGKCMNKKCKCYPR
modifications: not checked
The molecule B5 returned an IC50 (thallium flux, FLIPR) in test [1] of 0.24 nM.

B6: Compound 22 (peptide)
peptide: NMDMRCSASVECKQKCLKAIESIFGKCMNKKCKCYPR
modifications: not checked
The molecule B6 gave an IC50 (IL-17A release, thapsigargin-stimulated rat whole blood) in test [3] of 2.8 nM. Also, the Potency IC50 (patch clamp) in test [2] came to 0.29 nM. In addition, the IC50 (thallium flux, FLIPR) in test [1] turned out to be 0.11 nM.

B7: Compound 18 (peptide)
peptide: NMDMRCSASVECKQLCLKAIGSIFGKCMNKKCKCYPR
modifications: not checked
In test [3], B7 returned an IC50 (IL-17A release, thapsigargin-stimulated rat whole blood) of 3.2 nM. For the same molecule, the Potency IC50 (patch clamp) in test [2] was found to be 0.24 nM. Also, the IC50 (thallium flux, FLIPR) in test [1] amounted to 0.19 nM.

B8: Compound 55 (peptide)
peptide: NMDMRCSASVECKQKCLKYIGSIFGKCMNKKCKCYPR
modifications: not checked
In test [2], B8 gave a Potency IC50 (patch clamp) of 0.12 nM. In addition, the IC50 (thallium flux, FLIPR) in test [1] amounted to 0.12 nM.

B9: Compound 37 (peptide)
peptide: NMDMRCSASVECKQKCLKAIGSIFGKCMNKKCHCYPR
modifications: not checked
In turn, B9 returned an IC50 (IL-17A release, thapsigargin-stimulated rat whole blood) in test [3] of 0.77 nM. Besides, the Potency IC50 (patch clamp) in test [2] was 0.19 nM. Further, the IC50 (thallium flux, FLIPR) in test [1] was 0.14 nM.

B10: Compound 51 (peptide)
peptide: NMDMRCSASVECKQKCRKAIGSIFGKCMNKKCKCYPR
modifications: not checked
B10: the Potency IC50 (patch clamp) in test [2] worked out at 0.25 nM. Moreover, the IC50 (thallium flux, FLIPR) in test [1] is 0.11 nM.

B11: Compound 38 (peptide)
peptide: NMDMRCSASVECKQKCLKAIGSIFGKCMNKKCVCYPR
modifications: not checked
Molecule B11 registered an IC50 (IL-17A release, thapsigargin-stimulated rat whole blood) in test [3] of 2.8 nM. Also, the IC50 (thallium flux, FLIPR) in test [1] was 0.46 nM.

B12: Compound 9 (peptide)
peptide: NMDVRCSASVECKQKCLKAIGSIFGKCMNKKCKCYPR
modifications: not checked
As for B12, the IC50 (thallium flux, FLIPR) in test [1] came to 0.53 nM.

B13: Compound 10 (peptide)
peptide: NMDMRCSASVECKQKCKDAIGSIFGKCMNKKCKCYPR
modifications: not checked
Regarding B13, in test [1], the IC50 (thallium flux, FLIPR) was determined as 0.57 nM.

B14: Compound 31 (peptide)
peptide: NMDMRCSASVECKEKCLKAIGSIFGKCMNKKCKCYPR
modifications: not checked
Turning to B14, in test [3], the IC50 (IL-17A release, thapsigargin-stimulated rat whole blood) was found to be 0.86 nM. For the same molecule, the Potency IC50 (patch clamp) in test [2] turned out to be 0.28 nM. For the same molecule, in test [1], the IC50 (thallium flux, FLIPR) worked out at 0.075 nM.

B15: Compound 30 (peptide)
peptide: NMDMRCSASVECAQKCLKAIGSIFGKCMNKKCKCYPR
modifications: not checked
On to B15, for which the IC50 (IL-17A release, thapsigargin-stimulated rat whole blood) in test [3] was found to be 0.41 nM. This molecule gave a Potency IC50 (patch clamp) in test [2] of 0.14 nM. The IC50 (thallium flux, FLIPR) in test [1] was 0.09 nM.

B16: Compound 8 (peptide)
peptide: NIDMRCSASVECKQKCLKAIGSIFGKCMNKKCKCYPR
modifications: not checked
For the molecule B16, in test [2], the Potency IC50 (patch clamp) turned out to be 0.44 nM. This molecule also yielded an IC50 (thallium flux, FLIPR) in test [1] of 0.47 nM.

B17: Compound 33 (peptide)
peptide: NMDMRCSASVECKQKCLKAIHSIFGKCMNKKCKCYPR
modifications: not checked
With B17, the IC50 (IL-17A release, thapsigargin-stimulated rat whole blood) in test [3] was found to be 0.7 nM. In addition, in test [1], the IC50 (thallium flux, FLIPR) was 0.14 nM.

B18: Compound 58 (peptide)
peptide: NMDMRCSASVECKQKCLKAYGSIFGKCMNKKCKCYPR
modifications: not checked
With B18, the Potency IC50 (patch clamp) in test [2] stood at 0.34 nM. The IC50 (thallium flux, FLIPR) in test [1] was 0.11 nM.

B19: Compound 50 (peptide)
peptide: NMDMRCSASVECKQKCYKAIGSIFGKCMNKKCKCYPR
modifications: not checked
In the case of B19, in test [2], the Potency IC50 (patch clamp) was 0.27 nM. This molecule also displayed an IC50 (thallium flux, FLIPR) in test [1] of 0.16 nM.

B20: Compound 29 (peptide)
peptide: NMDMRCSASVECLQKCLKAIGSIFGKCMNKKCKCYPR
modifications: not checked
B20 registered an IC50 (IL-17A release, thapsigargin-stimulated rat whole blood) in test [3] of 0.76 nM. Moreover, the Potency IC50 (patch clamp) in test [2] turned out to be 0.4 nM. In test [1], the IC50 (thallium flux, FLIPR) stood at 0.18 nM.

B21: Compound 1 (peptide)
peptide: QMDMRCSASVECKQKCLKAIGSIFGKCMNKKCKCYPR
modifications: not checked
In test [3], B21 registered an IC50 (IL-17A release, thapsigargin-stimulated rat whole blood) of 0.17 nM.

B22: Compound 4 (peptide)
peptide: NMDMRCSASVECKQKCLKAIGRGFGKCMNKKCKCYPR
modifications: not checked
Regarding B22, the IC50 (thallium flux, FLIPR) in test [1] was found to be 0.29 nM.

B23: Compound 53 (peptide)
peptide: NMDMRCSASVECKQKCLYAIGSIFGKCMNKKCKCYPR
modifications: not checked
Take B23: in test [2], the Potency IC50 (patch clamp) stood at 0.29 nM. Further, the IC50 (thallium flux, FLIPR) in test [1] came to 0.12 nM.

B24: Compound 32 (peptide)
peptide: NMDMRCSASVECKLKCLKAIGSIFGKCMNKKCKCYPR
modifications: not checked
In test [3], B24 returned an IC50 (IL-17A release, thapsigargin-stimulated rat whole blood) of 0.75 nM. The Potency IC50 (patch clamp) in test [2] is 0.38 nM. In test [1], the IC50 (thallium flux, FLIPR) worked out at 0.12 nM.

B25: Compound 60 (peptide)
peptide: NMDMRCSASVECKQKCLKARGSIFGKCMNKKCKCYPR
modifications: not checked
The molecule B25 showed an IC50 (thallium flux, FLIPR) in test [1] of 0.035 nM.

B26: Compound 12 (peptide)
peptide: NMEMRCSASVECKQKCLKAIGSIFGKCMNKKCKCYPR
modifications: not checked
B26 returned a Potency IC50 (patch clamp) in test [2] of 0.11 nM. Further, the IC50 (thallium flux, FLIPR) in test [1] turned out to be 0.23 nM.

B27: Compound 7 (peptide)
peptide: NMDMRCSASVECKQKCLKAIGSIFGKCMNKKCKCYPR
modifications: not checked
In test [1], B27 showed an IC50 (thallium flux, FLIPR) of 0.12 nM.

B28: Compound 36 (peptide)
peptide: NMDMRCSASVECKQKCLKAIGSIFGKCMNGKCKCYPR
modifications: not checked
As to B28, in test [3], the IC50 (IL-17A release, thapsigargin-stimulated rat whole blood) was 1.2 nM. The molecule further displayed a Potency IC50 (patch clamp) in test [2] of 0.31 nM. This molecule yielded an IC50 (thallium flux, FLIPR) in test [1] of 0.24 nM.

B29: Compound 59 (peptide)
peptide: NMDMRCSASVECKQKCLKAEGSIFGKCMNKKCKCYPR
modifications: not checked
B29 returned an IC50 (thallium flux, FLIPR) in test [1] of 0.035 nM.

B30: Compound 11 (peptide)
peptide: GGNMDMRCSASVECKQKCLKAIGSIFGKCMNKKCKCYPR
modifications: not checked
In test [1], B30 had an IC50 (thallium flux, FLIPR) of 0.3 nM.

B31: Compound 13 (peptide)
peptide: SGNMDMRCSASVECKQKCLKAIGSIFGKCMNKKCKCYPR
modifications: not checked
For the molecule B31, the IC50 (thallium flux, FLIPR) in test [1] turned out to be 0.26 nM.

B32: Compound 54 (peptide)
peptide: NMDMRCSASVECKQKCLAIGSIFGKCMNKKCKCYPR
modifications: not checked
The molecule B32 registered an IC50 (thallium flux, FLIPR) in test [1] of 0.46 nM.

B33: Compound 57 (peptide)
peptide: NMDMRCSASVECKQKCLKIGSIFGKCMNKKCKCYPR
modifications: not checked
In test [1], B33 registered an IC50 (thallium flux, FLIPR) of 0.11 nM.

B34: Compound 61 (peptide)
peptide: NMDMRCSASVECKQKCLKAGSIFGKCMNKKCKCYPR
modifications: not checked
In the case of B34, the IC50 (thallium flux, FLIPR) in test [1] worked out at 0.4 nM.

B35: Compound 24 (peptide)
peptide: NMDMRCSASVECKQKCLKAIGSIFGKCMNKKCKCYPRHRRK
modifications: not checked
In test [1], B35 showed an IC50 (thallium flux, FLIPR) of 0.073 nM.
